# Test system: AB943 primary human dermal fibroblast cell line
# Assay: Cytotoxicity, Alamar Blue
# Format: cell-based
# Settings: CC50 on AB943 fibroblasts / IC50 on 3D7
# Description: Cells were seeded in 96-well plates (20,000 cells/mL) and incubated for 24 h, then treated with the drug for 72 h. […] Fluorescent viable cells were monitored after 5 h of incubation at 37 °C at a wavelength of 530 nm for excitation and 590 nm for emission in an FL600 luminescence spectrometer (Biotek, Colmar, France).
row,Substance,Selectivity Index CC50/IC50
1,alpinetin [Compound 7],1.4
2,pinocembrin [Compound 8],1.3
